Measured data: PubChem BioAssay AID1259414 (Drosophila RNAi Screening Center, 2018)

Screen: 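Host factors increasing or decreasing Wolbachia levels in cultured fly cells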 (primary screen)
Cell system: Drosophila JW18 cells infected with Wolbachia
Knock-down reagent: long dsRNA against Drosophila genes, 0.25 µg dsRNA per well of a 384-well plate
Time to read-out: 5 days
Treatment: cells persistently infected with Wolbachia before knock-down; no added drug
Read-out: 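Imaged fluorescence in situ signal for Wolbachia 23S rRNA per DAPI-counted host cell, given as a robust z-score within each plate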
Reading the numbers: Wolbachia per cell robust z: higher = more Wolbachia per host cell than the plate typical
Rule for the call: 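Active if absolute robust z reaches 1.5 in two or more of three replicates, leaving out multi- or no-target dsRNAs, genes unexpressed in JW18 and A1 wells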
The deposit covers about 24,000 reagents; shown is a random part of those with a known target gene and a result. Of all reagents, about 1,210 (5%) got an active call. 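Inactive calls also include excluded dsRNAs with several or no targets, genes unexpressed in JW18, and well A1, regardless of score.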 A plus sign joins genes that one reagent is predicted to hit. No sequences are given here.

Taf6 (GeneID 40134) [DRSC11299] — Wolbachia per cell robust z, rep 1: 0.487; Wolbachia per cell robust z, rep 2: -0.395; Wolbachia per cell robust z, rep 3: 0.774; Call: inactive
Hph (GeneID 40633) [DRSC12164] — Wolbachia per cell robust z, rep 1: -0.518; Wolbachia per cell robust z, rep 2: -0.553; Wolbachia per cell robust z, rep 3: -1.65; Call: inactive
Hph (GeneID 40633) [DRSC12251] — Wolbachia per cell robust z, rep 1: 0.272; Wolbachia per cell robust z, rep 2: 0.94; Wolbachia per cell robust z, rep 3: -0.503; Call: inactive
Hph (GeneID 40633) [DRSC21876] — Wolbachia per cell robust z, rep 1: 0.243; Wolbachia per cell robust z, rep 2: 0.547; Wolbachia per cell robust z, rep 3: 1.3; Call: inactive
Hph (GeneID 40633) [DRSC24780] — Wolbachia per cell robust z, rep 1: 0.264; Wolbachia per cell robust z, rep 2: 1.9; Wolbachia per cell robust z, rep 3: 0.752; Call: inactive
Hph (GeneID 40633) [DRSC25979] — Wolbachia per cell robust z, rep 1: -1.49; Wolbachia per cell robust z, rep 2: 0.219; Wolbachia per cell robust z, rep 3: 0.288; Call: inactive
GATAe (GeneID 41945) [DRSC23209] — Wolbachia per cell robust z, rep 1: 0.865; Wolbachia per cell robust z, rep 2: 1.17; Wolbachia per cell robust z, rep 3: 0.883; Call: inactive
Xbp1 (GeneID 44226) [DRSC04553] — Wolbachia per cell robust z, rep 1: -1.63; Wolbachia per cell robust z, rep 2: 0.941; Wolbachia per cell robust z, rep 3: 0.884; Call: inactive
Xbp1 (GeneID 44226) [DRSC21624] — Wolbachia per cell robust z, rep 1: -0.314; Wolbachia per cell robust z, rep 2: -0.213; Wolbachia per cell robust z, rep 3: -0.132; Call: inactive
CG31635 (GeneID 33928) [DRSC02273] — Wolbachia per cell robust z, rep 1: 1.11; Wolbachia per cell robust z, rep 2: -0.682; Wolbachia per cell robust z, rep 3: -1.68; Call: inactive
His-Psi:CR31616 + His-Psi:CR31615 [DRSC03760] — Wolbachia per cell robust z, rep 1: 1.88; Wolbachia per cell robust z, rep 2: 2.45; Wolbachia per cell robust z, rep 3: 0.593; Call: inactive
CG3687 (GeneID 36803) [DRSC06850] — Wolbachia per cell robust z, rep 1: -0.152; Wolbachia per cell robust z, rep 2: -1.7; Wolbachia per cell robust z, rep 3: -0.295; Call: inactive
CG3687 (GeneID 36803) [DRSC29588] — Wolbachia per cell robust z, rep 1: 0.8; Wolbachia per cell robust z, rep 2: -0.203; Wolbachia per cell robust z, rep 3: 0.00654; Call: inactive
CG3687 (GeneID 36803) [DRSC39030] — Wolbachia per cell robust z, rep 1: -0.869; Wolbachia per cell robust z, rep 2: -1.01; Wolbachia per cell robust z, rep 3: -3.42; Call: inactive
